# Source: patent publication US5968513A (priority 1996, dated 1999)
# Where “and” joins values, the source holds several entries; their conditions need not be identical. Equal values may be shown once. Entries after “also recorded” stand apart in the source; their conditions may differ. Read-outs that look alike come from different tables or passages of the source.
# Tested on: HIV-1
# Assay type: in vivo, human
# Details: for CD4/mm^3 Rx (post treatment with hCG): M = month from enrollment, weekly dose 12,500-70,000 IU; for Viral Load Rx (post treatment with hCG), NASBA: lower detection limit 4,000 copies
# [1] = individual patients, listed as P
# [2] = individual patients, listed as A
substance,measurement,setting,value
Human Chorionic Gonadotropin [hCG],toxicity / tolerability in patients,hCG therapy of HIV-infected patients,well tolerated; also recorded: cholestasis was exacerbated; also recorded: liver toxicity may be a rare complication
same,CD4/mm^3 Rx (post treatment with hCG),individual patients,160 /mm^3 and 204 /mm^3 and 424 /mm^3
same,"Viral Load Rx (post treatment with hCG), NASBA",individual patients,"11,000 copies and 700,000 copies and less than 4000 copies and undetectable"
same,"Viral Load Rx (post treatment with hCG), RT-PCR","individual patients, RT-PCR, lower detection limit 100 copies",2500 copies and 500 copies
"Pregnyl: commercial hCG preparation Pregnyl, Organon",CD4/mm^3 Rx (post treatment with hCG),[1],160 /mm^3 and 204 /mm^3 and 3 /mm^3 and 35 /mm^3 and 17 /mm^3 and < 5 /mm^3 and 505 /mm^3 and 89 /mm^3 and 5 /mm^3 and 202 /mm^3 and 10 /mm^3 and 72 /mm^3 and 14 /mm^3 and 12 /mm^3
same,"Viral Load Rx (post treatment with hCG), NASBA",[1],"11,000 copies and 150,000 copies and < 4000 copies and 300,000 copies"
same,Weight gain,[1],+6 Kg and +3 Kg and +2 Kg and +1 Kg and -3 Kg and 0 Kg and +1.5 Kg
"hCG (APL): commercially available partially purified hCG preparation APL, Wyeth Ayerst",CD4/mm^3 Rx (post treatment with hCG),[2],170 /mm^3 and 48 /mm^3 and 424 /mm^3 and 21 /mm^3 and 213 /mm^3 and 678 /mm^3 and 218 /mm^3 and 86 /mm^3 and 361 /mm^3 and 46 /mm^3 and 483 /mm^3
same,"Viral Load Rx (post treatment with hCG), Roche Amplicor","individual patients, Roche Amplicor, lower detection limit 200 copies, listed as A","1,700 copies and 40,000 copies and 55,000 copies and 98,000 copies and 22,313 copies and 6,777 copies and 200 copies and 22,510 copies"
same,Weight gain,[2],-0.9 Kg and +1.8 Kg and +1.4 Kg and +3.2 Kg and +4.5 Kg and +2.3 Kg and -5.0 Kg and +5.4 Kg and +10.0 Kg
